A mixed list of measured activities; the numbers were collected in NIAID ChemDB.

An empty or dashed field is not shown.

smiles	strain or isolate	organism	read by	read-out	kind	tested at	target	result
COc1ccc2c(c1)n([O-])c1cc(C#N)ccc1[n+]2=O	ETA-R	Mycobacterium tuberculosis	-	MIC	culture	-	-	12.5 µg/mL
Fc1ccc(CCNCCNCCCc2ccccc2)cc1	-	Mycobacterium tuberculosis	-	MIC	culture	-	-	12.5 µM
NC(=O)c1n[nH]c([C@@H]2O[C@H](CO)[C@@H](O)[C@H]2O)n1	H37Rv	Mycobacterium tuberculosis	BACTEC	MIC bound	culture	-	-	>12.5 µg/mL
Fc1ccc(N2CCCCC2)c(NC(=S)c2ccncc2)c1	-	-	kinase activity	inhibition	host protein	10 µM	MARK4	3.1%
CCCCCCC/C=C/C(=O)OC1C(OC2C(OC(CCCCCCC)CC(=O)OC(CCCCCCC)CC(=O)O)OC(C)C(O)C2O)OC(C)C(O)C1O	H37Rv	Mycobacterium tuberculosis	BACTEC	inhibition	culture	12.5 µg/mL	-	13%
CCCCCNCCNC1(C)CN(CC(CC)CCCC)CN(CC(CC)CCCC)C1	-	Mycobacterium tuberculosis	-	MIC	culture	-	-	50 µM
CN(C)C1CCc2cc3c(cc2C1O)CCCC3.Cl	H37Rv	Mycobacterium tuberculosis	-	MIC	culture	-	-	>100 µg/mL
c1ccc(CC2CCN(CCNCC34CC5CC(CC(C5)C3)C4)CC2)cc1	-	Mycobacterium tuberculosis	-	MIC	culture	-	-	9.4 µM
O=C(O)C(=O)c1c[nH]c2ccccc12	H37Rv	Mycobacterium tuberculosis	-	MIC	culture	-	-	100 µg/mL
c1ccc(C(NCCNC2CCCc3ccccc32)c2ccccc2)cc1	-	Mycobacterium tuberculosis	-	MIC	culture	-	-	50 µM
O=C(O)c1c(-c2ccccc2O)cnc2ccc3c(S(=O)(=O)[O-])cccc3c12.[Na+]	H37Rv	Mycobacterium tuberculosis	-	MIC	culture	-	-	>100 µg/mL
COC(=O)CCc1cc(=O)oc2c(I)c(O)cc(O)c12	H37Rv	Mycobacterium tuberculosis	BACTEC	inhibition	culture	12.5 µg/mL	-	0%
COc1ccc(CNCCNC[C@]2(C)CCC[C@]3(C)c4ccc(C(C)C)cc4CC[C@@H]23)c(OC)c1	-	Mycobacterium tuberculosis	-	MIC	culture	-	-	25 µM
Nc1ccc(N=Nc2ccc(S(N)(=O)=O)cc2)c(O)c1	H37Rv	Mycobacterium tuberculosis	-	MIC	culture	-	-	50 µg/mL
COC(=O)C1=NC(=S)N=C(C(=O)OC)C1(C)C(=O)c1ccc(Cl)cc1	H37Rv	Mycobacterium tuberculosis	resazurin	MIC bound	culture	-	-	>6.25 µg/mL
CC1(C)[C@@H]2CC[C@@]1(C)[C@@H](NCCNCC(c1ccccc1)c1ccccc1)C2	-	Mycobacterium tuberculosis	-	MIC	culture	-	-	6.25 µM
N/N=C1\CCC(C(=O)NN)C1	H37Rv	Mycobacterium tuberculosis	BACTEC	MIC	culture	-	-	≥12.5 µg/mL
COc1ccc(CNCCNCc2ccc(OC(F)(F)F)cc2)c(OC)c1	-	Mycobacterium tuberculosis	-	MIC	culture	-	-	50 µM
NCCc1ccc(N)cc1	H37Rv	Mycobacterium tuberculosis	-	MIC	culture	-	-	>100 µg/mL
C=CCc1ccc(O)c(OC)c1	3078	Candida albicans	turbidity	MIC90	culture	-	-	475 µg/mL
c1ccc(OCCCOc2ccccc2)cc1	H37Rv	Mycobacterium tuberculosis	-	MIC	culture	-	-	50 µg/mL
COc1c(O)cc2c(c1O)[C@@H]1O[C@H](CO)[C@@H](O)[C@H](O)[C@H]1OC2=O	H37Rv	Mycobacterium tuberculosis	BACTEC	inhibition	culture	12.5 µg/mL	-	23%
Cc1ccc(C)n1-c1ccc(S(N)(=O)=O)cc1	H37Rv	Mycobacterium tuberculosis	-	MIC	culture	-	-	100 µg/mL
COc1cc(/C=C/C(=O)NCC(=O)NN)cc(OC)c1OC	H37Rv	Mycobacterium tuberculosis	BACTEC	MIC bound	culture	-	-	>12.5 µg/mL
Cc1ccc(S(=O)(=O)Nc2cc(=O)[nH]c(=S)[nH]2)cc1	H37Rv	Mycobacterium tuberculosis	-	MIC	culture	-	-	>100 µg/mL
CC(CNCC(c1ccccc1)c1ccccc1)NCCC(c1ccccc1)c1ccccc1	-	Mycobacterium tuberculosis	-	MIC	culture	-	-	50 µM
C/C(=N/NC(=S)N1CCC(C)CC1)c1nccnc1C	RMP-R	Mycobacterium tuberculosis	-	MIC	culture	-	-	1.6 µg/mL
CC1=C(O)c2ccccc2C(=O)C1=O	H37Rv	Mycobacterium tuberculosis	-	MIC	culture	-	-	50 µg/mL
Cc1ccc(Nc2nc(N)nc(N)c2N=O)cc1Cl	H37Rv	Mycobacterium tuberculosis	BACTEC	inhibition	culture	12.5 µg/mL	-	50%
O=C(O)Cc1ccc(Cl)cc1	H37Rv	Mycobacterium tuberculosis	-	MIC	culture	-	-	>100 µg/mL
CCCCCCCCCCCNCCNC(C)CC	-	Mycobacterium tuberculosis	-	MIC	culture	-	-	25 µM
CCC1(O)C(=O)OCc2c1cc1n(c2=O)Cc2c-1nc1ccccc1c2OC	H37Rv	Mycobacterium tuberculosis	resazurin	MIC bound	culture	-	-	>6.25 µg/mL
NCCSSCCN	H37Rv	Mycobacterium tuberculosis	-	MIC	culture	-	-	>100 µg/mL

MIC bound: limit read from a one-dose screen. MIC50, MIC90 and the like: level of inhibition, or share of isolates inhibited. Inhibition is in % at the dose shown (toxicity tests: loss of growth or viability). Neighbouring rows are from separate reports.